From the supplement of paper PMC9931576
Human monoclonal antibodies against the spike receptor-binding domain (heavy:light variable regions). IC50 against pseudoviruses bearing the spike of naturally observed variants; lower = stronger; >10 µg/ml means not reached at the top dose. No active / inactive call. The stated detection limit is 0.0005 µg/ml; values near or below 0.001 µg/ml lie at the floor of the assay.

B1: BD55-5644 (protein)
chain 1: QVQLVQSGSELKKPGASVKVSCKASGYTFSTYGINWVRQAPGQGLEWMGWINTDTGNPTYAQDFTGRFVFSLDTSVSTAYLRIDSLQSEDTAVYYCAKDRGFGEYYFDYWGQGTLVTVSS
chain 2: EIVMTQSPVTLSVSPGERATLSCKARANYGVGSDLAWYQQKPGQAPRLLIYAAVIRATGIPARFSGSGSGTDFTLTISSLQSEDFAVYYCQQYKNWPLTFGGGTRVEIK
B2: BD55-1078 (protein)
chain 1: QVQLVQSGAEVKKPGSSVKVSCKASGDTFTRFAISWVRQAPGQGPEWMGRIIPMFGIANYAHQFQGRVTITADKSTNTAYMELSSLRSEDTAFFYCARDHYLDNSVPRLDYWGQGTLVTVSS
chain 2: DIQMTQSPSSLSASVGDRVTITCRASQSIAGYLNWYQQKPGKAPNLLIYATSTLHSGVPSRFSGSGSGTDYTLTISSLQREDFATYYCQQTHSAPRTFGQGTKVEIK
B3: BD55-5588 (protein)
chain 1: QITLKESGPTLVKPTQTLTLTCTFSGFSLSTTEVSVGWIRQSPGKALEWLALIYWDDGKRYSPTLESRLTITKDTSKNQVVLVMTHMDPVDTATYFCVHSHFDLSTGYFGFDFWGQGILVTVSS
chain 2: DIVMTQTPLSSPVTLGQPASISCRSSQSLVHSDGNTYLSWFHQRPGQPPRLLIYKVSNRFSGVPDRFSGSGAGTDFTLKISRVEAEDVGVYYCMQATQFPHEMYTFGQGTKLEIK
B4: BD55-5675 (protein)
chain 1: QVHLVQSGAEVKKPGASVKVSCKASGYTFTSYSIHWVRQAPGEGLEWVGIINPTAGSTNYAQRFQGRVTMTRDTSTSTVYMELSSLTSEDTALYYCARDFAFSREYSGYDILDTSWFDPWGQGTLVTVST
chain 2: DIVMTQSPDSLAVSLGERATINCKSSQSVLYNNKNYVAWYQQKPGQPPKVFIYWASTRASGVPDRFSGSGSGTDFTLTISSLQAEDVAIYYCHQYYSSPLTFGGGTKVEIK
B5: BD55-5636 (protein)
chain 1: EVQLVESGGGLVQPGGSLRLSCAASGFIFSNFAMHWVRQTPEKGLEFVSSITSDGGGRFYADSVKGRFTISRDNSRNTLYLQMGSLRAEDMAVYYCAREKNTYDFLGLSFDFWGRGSLVTVSS
chain 2: DIQMTQSPASLSASVGGRVTITCRANQNINKNLNWYQHKPGKAPKLLIYAASSLQSGVPSRFRGSGSGTDFTLTISGLQPEDFATYYCQQTYITPMYTFGQGTTLEIK
B6: BD55-5687 (protein)
chain 1: QITLKESGPTLVKPTQTLTLTCTFSGFSLSTSRVAVGWIRQPPGKALEWLALIFWDDDKRYSPSLRSRLTISKDTSKNQVALTMTNMEPVDTATYYCAHGWWDYYGSGTRFDFWGPGTLVTVSS
chain 2: QSVLTQPPSASGTPGLRVTISCSGGSSNIGSNTVNWYQQLPGTAPKLLIYKDDQRPLGVPDRFSGSRSGTSASLAISGLQSEDEAHYYCATWDDSLNGPVFGGGTKLTVL
B7: BD55-5629 (protein)
chain 1: EVQLLESGGGLVQPGGSLRLSCAASEFTFSSYAMSWVRQAPGKGLEWVSVISGTGFTTEYADSVKGRFTISRDNAKNMLYLQMNGLRGEDTAVYFCVKDKLDSDIVAPAFAALSWGQGTLVSVSS
chain 2: DIQMTQSPSSLSAAIGGRVTITCRASQSISTYLNWYQQKPGKAPKLLIYAASTLQSGVPSRFSGSGSGTDFTLTIGNVQREDSATYFCQQSYISPPVTFGQGTRLEIK
B8: BD55-5609 (protein)
chain 1: QVQLVQSGAEVKKPGSSVRVSCKPAGGTFNSYAITWVRQAPGQGLEWMGGIIPVFDTTHYSQKFQGRVTINADESTSTVYMEVSSLTSHDTAIYYCAKSKYHPGYDVLTGRPDLNLPFDRWGQGTLVTVSS
chain 2: DIQMTQSPSSLSASVGDRVTITCQASQGIDKYLSWYQQKPGKAPKLLIHAASSLETGVPSRFTGSGSGTDFTFTISSLQSEDIATYYCQQYDSLPYTFGQGTKLEIK
B9: BD55-5640 (protein)
chain 1: QVQLVQSGAEVKKPESSVKVSCKASGGNFNTYGINWVRQAPGQGFEWMGRIIPITGAADYAQKFQGRVTITADKVTSTVYMELNSLRSEDTAVYYCARGGGRGYSGYDYFDYDIDVWGQGTTVTVSS
chain 2: DIQMTQSPSSLSASVGDRVTITCQASQGITKYLSWFQQKPGKAPKLLIHDASNLETGVPSRFSGSGSGTDFTFTISSLQPEDIATYYCQQYDNLPITFGQGTRLEIK
B10: BD55-5676 (protein)
chain 1: EVQLVESGGGLVQPGRSLRLSCAASGFTFENHAMNWVRQAPGKGLEWVSGISWNSGRIGYADSVKGRFTISRDNAKNFLYLQMSSLRAEDTAFYYCARGYDSSGYYSPDNLPDYWGQGTLVTVSS
chain 2: QLVVTQSPPASASLGASVKLTCTLSSGHSNNAVTWHQQQPEKGPRYLMKLNSDGSHHKGDGIPDRFSGSSSGAERYLIISSLQSEDEADYYCQTWDTGLNWVFGGGTKLTVL
B11: BD55-5585 (protein)
chain 1: QLQLQESGPGLVKPSEILSLTCTVSGGSISSGTDYWGWIRQPPGKGLEWIGSIYYSGSTSYSPSLKSRVTISVDTFKNQFSLKLNSVTAADTAVYYCARHLGQRSLWLLPLYFDYWGQGALVTVSS
chain 2: SYDLTQPPSVSVSPGQTARITCSGDALPNQYAYWYQQKPGQAPVLAIYKDTERPSGIPERFSGSTSGTTATLTISGVQADDEADYYCQSADSSTTYVVFGGGTKLTVL
B12: BD55-5690 (protein)
chain 1: QAQVVQSGAEVKKPGASVKVSCKASGYTFTSYSMHWVRQAPGQGLEWMGTFNPRGGPTNYAQKFHGRVTMTGDTSTGTVYMELSSLRSDDTAVYYCARDGSPYYDILMGQSYFGPWGQGTLVTVSS
chain 2: QSVLTQPPSVSGAPGQRVTISCSGSSSNIGAGYDVHWYQQRPGTAPTLLIHGNNNRPSGVPDRFSGSTSDTSASLAITGLQAEDEAVYYCQSFDSSMSGPLWVFGGGTTLTVL

Molecular target: SARS-CoV-2 Omicron BA.1 spike pseudovirus
Assay: pseudovirus neutralization IC50; higher = weaker neutralization
Description: (§1)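 Single-round VSV luciferase pseudovirus mixed with antibody dilutions for 1 h and put on Huh-7 cells for about a day; IC50 from the dose curve.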

Binder	pseudovirus neutralization IC50 [µg/mL]
B1	3.51
B2	> 10
B3	> 10
B4	6.2
B5	> 10
B6	5.08
B7	0.233
B8	1.07
B9	0.0692
B10	> 10
B11	0.0132
B12	> 10

Molecular target: SARS-CoV-2 Omicron BA.2 spike pseudovirus
Assay: as above
Description: as §1

Binder	pseudovirus neutralization IC50 [µg/mL]
B1	8.98
B2	> 10
B3	> 10
B4	> 10
B5	> 10
B6	4.13
B7	3.87
B8	1.43
B9	> 10
B10	> 10
B11	0.164
B12	> 10

Molecular target: SARS-CoV-2 Omicron BA.2.75 spike pseudovirus
Assay: as above
Description: as §1

Binder	pseudovirus neutralization IC50 [µg/mL]
B1	> 10
B2	> 10
B3	> 10
B4	> 10
B5	> 10
B6	3.49
B7	2.3
B8	2.77
B9	> 10
B10	> 10
B11	0.306
B12	> 10

Molecular target: SARS-CoV-2 Omicron BA.5 spike pseudovirus
Assay: as above
Description: as §1

Binder	pseudovirus neutralization IC50 [µg/mL]
B1	7.21
B2	> 10
B3	> 10
B4	> 10
B5	> 10
B6	3.65
B7	5.49
B8	3.07
B9	> 10
B10	> 10
B11	0.269
B12	> 10

Molecular target: SARS-CoV-2 Omicron BQ.1.1 spike pseudovirus
Assay: as above
Description: as §1

Binder	pseudovirus neutralization IC50 [µg/mL]
B1	> 10
B2	> 10
B3	> 10
B4	> 10
B5	> 10
B6	2.41
B7	2.38
B8	4.62
B9	> 10
B10	> 10
B11	> 10
B12	> 10

Molecular target: SARS-CoV-2 Omicron XBB spike pseudovirus
Assay: as above
Description: as §1

Binder	pseudovirus neutralization IC50 [µg/mL]
B1	> 10
B2	> 10
B3	> 10
B4	> 10
B5	> 10
B6	2.14
B7	4.47
B8	3.54
B9	> 10
B10	> 10
B11	> 10
B12	> 10

Molecular target: SARS-CoV-2 early D614G spike pseudovirus
Assay: as above
Description: as §1

Binder	pseudovirus neutralization IC50 [µg/mL]
B1	0.762
B2	0.001
B3	0.0636
B4	0.0247
B5	> 10
B6	2.33
B7	0.0146
B8	0.793
B9	0.0143
B10	0.0132
B11	0.00213
B12	0.0506
